Measurements from US20040220095A1, “Pna conjugate for the treatment of diseases associated with hiv” (published 2004).

System: chronically HIV-infected cells (viral p24)
Assay: viral p24 ELISA in chronically HIV-infected cells after PNA treatment
Settings: FIG. 13, 72 and 144 h after the PNA application

N-GTA TTC ATC CAC AAT TTT
viral p24 (ELISA) following PNA treatment: best effect
